Results of unrelated studies side by side (data: NIAID ChemDB).

All rows: growth or infection tests; organism: HIV-1; cell line: CEM; read by: syncytia; endpoint: fold resistance

Conditions beyond the fields shown may differ between rows. Fold resistance has wild type as its base.

{"compound": "CCOCn1c(Cc2cc(C)cc(C)c2)c(CC)c(=O)[nH]c1=O", "strain or isolate": "IIIB (TIBO 82150) (RT-L100I)", "mutations": "RT-L100I", "result": "8"}
{"compound": "CC(C)OC(=O)c1cc(NC(=S)N(C)C(C)C)ccc1Cl", "mutations": "RT-E138K", "result": ">1"}
{"compound": "CCc1c(Cc2cc(C)cc(C)c2)n(COCCO)c(=O)[nH]c1=O", "strain or isolate": "IIIB", "mutations": "Nevirapine resistant (RT Y181C)", "result": "53.6"}
{"compound": "CC(C)=CCOc1cc(NC(=S)c2ccoc2C)ccc1Cl", "strain or isolate": "IIIB", "mutations": "RT-K103N", "result": "7.7"}
{"compound": "CC(C)OC(=O)c1cc(NC(=O)OCC2CC2)ccc1Cl", "mutations": "RT-L100I", "result": "8.89"}
{"compound": "CC(C)OC(=O)c1cc(NC(=S)OC(C)C)ccc1Cl", "strain or isolate": "IIIB", "mutations": "RT-E138K", "result": "43"}
{"compound": "CSc1ccc(NC(=S)OC(C)C)cc1C(=O)OC(C)C", "mutations": "RT-L100I", "result": "21.3"}
{"compound": "CC(C)OC(=O)c1cc(NC(=S)OC(C)C)ccc1Cl", "strain or isolate": "IIIB", "mutations": "RT-Y181C", "result": "65.5"}
{"compound": "CCc1c(Sc2cc(C)cc(C)c2)n(COCCO)c(=S)[nH]c1=O", "strain or isolate": "IIIB (TIBO 82150) (RT-L100I)", "mutations": "RT-L100I", "result": "7.5"}
{"compound": "COCC1=C(C(=O)Nc2ccc(Cl)c(C(=O)OC(C)C)c2)SCCO1", "strain or isolate": "TSAO-resistant (RT E138K)", "mutations": "RT-E138K", "result": "5"}
{"compound": "CCOC(=O)C(C)Oc1cc(NC(=S)OC(C)C)ccc1Cl", "mutations": "RT-Y181C", "result": "13.1"}
{"compound": "CCCOC(=O)c1ccc(C)c(NC(=O)C2=C(C)OCCS2)c1", "strain or isolate": "TSAO-resistant (RT E138K)", "mutations": "RT-E138K", "result": ">10"}
{"compound": "Cc1cc(C)cc(Sc2c(C(C)C)c(=O)[nH]c(=S)n2COCCO)c1", "strain or isolate": "IIIB", "mutations": "RT-Y181I", "result": "1670"}
{"compound": "CCCCCOC(=O)c1cc(NC(=O)C2=C(C)OCCS2)ccc1Cl", "strain or isolate": "Nevirapine-resistant (RT V106A)", "mutations": "RT-V106A", "result": "16.7"}
{"compound": "CC(C)OC(=O)Oc1cc(NC(=S)OC(C)C)ccc1Cl", "mutations": "RT-L100I", "result": "17.5"}
{"compound": "CC(C)=CCOc1cc(NC(=S)c2ccoc2C)ccc1Cl", "strain or isolate": "IIIB", "mutations": "RT-Y181C", "result": "4"}
{"compound": "CC(=O)COc1cc(NC(=S)OC(C)C)ccc1Cl", "mutations": "RT-V106A", "result": "9.99"}
{"compound": "CCc1c(Sc2cc(C)cc(C)c2)n(COCCO)c(=O)[nH]c1=O", "strain or isolate": "IIIB", "mutations": "Nevirapine resistant (RT Y181C)", "result": "83.3"}
{"compound": "CC1=C(C(=O)Nc2ccc(Cl)c(C(=O)OC3CCCC3)c2)SCCO1", "strain or isolate": "Nevirapine-resistant (RT V106A)", "mutations": "RT-V106A", "result": "35"}

2 of the rows above, restated:

compound | strain or isolate | mutations | result
COCC1=C(C(=O)Nc2ccc(Cl)c(C(=O)OC(C)C)c2)SCCO1 | TSAO-resistant (RT E138K) | RT-E138K | 5
CC(C)=CCOc1cc(NC(=S)c2ccoc2C)ccc1Cl | IIIB | RT-Y181C | 4